Measured values from several laboratories, pooled; numbers as filed in NIAID ChemDB.

Shared fields: enzyme or target tests; agent: HIV-1; target: Integrase; endpoint: IC50

ICn: concentration for n% inhibition.

structure	strain	read by	value
COc1cc(/C=C/C(=O)CC(=O)/C=C/c2ccc(O)c(OC)c2)ccc1O	-	3′ processing	~100 µM
CC(=O)Oc1cc(/C=C/S(=O)(=O)CS(=O)(=O)/C=C/c2cc(OC(C)=O)c(OC(C)=O)c(OC(C)=O)c2)cc(OC(C)=O)c1OC(C)=O	-	3′ processing	50 µM
O=C1c2c(ccc(O)c2O)CN1Cc1ccccc1	-	strand transfer	12 µM
CC[C@@]1(O)C(=O)OCc2c1cc1n(c2=O)Cc2cc3ccccc3nc2-1	-	3′ processing	>100 µM
COc1cc(O)c(C(=O)O)c(-c2cc(O)c(O)cc2C)c1	-	strand transfer	25 µM
O=C(c1ccccc1)c1cccc(CN2C(=O)c3ccc(O)c(O)c3C2=O)c1	-	strand transfer	1.1 µM
CC(C)=C/C=C\[C@H](C)[C@H]1CC[C@]2(C)C[C@H]3[C@H](C(=O)C[C@@]3(C)O)C(C=O)=C[C@@H]12	-	absorbance	23 µM
Nc1ccn(C2CC(OP(=O)(O)OCC3OC(n4cnc5c(N)ncnc54)CC3OP(=O)(O)OCC3OC(n4cnc5c(N)ncnc54)CC3O)C(COP(=O)(O)O)O2)c(=O)n1	-	strand transfer	22 µM
CN(C)CCCNC(=O)c1cc(NC(=O)c2cc(NC(=O)c3cc(NC(=O)c4ccccc4C(=O)O)cn3C)cn2C)cn1C	-	disintegration	>100 µM
O=C1C2C3CCC(O3)C2C(=O)N1N1C(=O)C2C3CCC(O3)C2C1=O	-	3′ processing	>250 µM
COc1cc(/C=C/S(=O)(=O)CS(=O)(=O)/C=C/c2ccccc2)cc(OC(C)=O)c1OC(C)=O	-	3′ processing	80 µM
O=C(Oc1c(-c2ccc(Cl)cc2)oc2ccccc2c1=O)c1cc(OCc2ccccc2)c(OCc2ccccc2)c(OCc2ccccc2)c1	-	3′ processing	>100 µM
NC(N)=Nc1ccc(S(=O)(=O)c2ccc(N=C(N)N)cc2)cc1	-	3′ processing	>100 µM
O=C1c2c(O)ccc(O)c2C(=O)C2C1C[C@H](O)[C@H](O)[C@@H]2O	-	3′ processing	30 µM
O=C1c2c(ccc(O)c2O)CN1Cc1ccc2[nH]ccc2c1	-	3′ processing	>333 µM
O=S(=O)(SC(Cl)(Cl)Cl)c1cccc(S(=O)(=O)c2cccc(S(=O)(=O)SC(Cl)(Cl)Cl)c2)c1	-	disintegration	28 µM
Nc1ccn(C2CC(O)C(COP(=O)(O)OC3CC(n4ccc(N)nc4=O)OC3COP(=O)(O)O)O2)c(=O)n1	-	3′ processing	15 µM
COc1cc(C(=O)Oc2c(-c3ccc(Cl)c(Cl)c3)oc3ccccc3c2=O)cc(OC)c1OC(C)=O	-	3′ processing	>100 µM
COc1cc(OC)c2c(O)c3c(c(-c4ccc5cc6c(c(O)c5c4O)C(=O)CC(C)(O)C6)c2c1)CC(C)OC3C	-	3′ processing	21 µM
CN(C)C1C(=O)C(C(=O)NCNCCC(=O)O)=C(O)C2(O)C(=O)C3=C(O)c4c(O)cccc4C(C)(O)C3CC12	RF	3′ processing	5.1 µM
CC(=O)Oc1ccc(/C=C/S(=O)(=O)CS(=O)(=O)/C=C/c2ccc(OC(C)=O)c(OC(C)=O)c2)cc1OC(C)=O	-	3′ processing	70 µM
Cc1cn(C2CC(OP(=O)(O)OCC3OC(n4ccc(N)nc4=O)CC3O)C(COP(=O)(O)O)O2)c(=O)[nH]c1=O	-	3′ processing	35 µM
CN(C)CCCNC(=O)c1cc(NC(=O)c2cc(NC(=O)c3cc(NC(=O)c4ccc(C(=O)Nc5cc(C(=O)Nc6cc(C(=O)Nc7cc(C(=O)NCCCN(C)C)n(C)c7)n(C)c6)n(C)c5)nc4)cn3C)cn2C)cn1C	-	disintegration	0.18 µM
C[C@H](CCC(=O)Nc1ccc(S(=O)(=O)c2ccc(NC(=O)CC[C@@H](C)[C@H]3CC[C@H]4[C@@H]5CC[C@H]6C[C@@H](O)CC[C@]6(C)[C@H]5CC(O)[C@]34C)cc2)cc1)[C@H]1CC[C@H]2[C@@H]3CC[C@H]4C[C@@H](O)CC[C@]4(C)[C@H]3CC(O)[C@]12C	-	strand transfer	>100 µM
Cn1cc(NC(=O)c2cc(NC(=O)c3cc(NC(=O)CCCCCCC(=O)Nc4cc(C(=O)Nc5cc(C(=O)Nc6cc(C(=O)NCCC(=N)N)n(C)c6)n(C)c5)n(C)c4)cn3C)cn2C)cc1C(=O)NCCC(=N)N	-	3′ processing	0.025 µM
O=C1CCCC(=O)NNC(=O)NCCCCCCNC(=O)NN1	-	3′ processing	>250 µM
Cc1cn(C2CC(O)C(COP(=O)(O)OC3CC(n4cc(C)c(=O)[nH]c4=O)OC3COP(=O)(O)OC3CC(n4ccc(N)nc4=O)OC3COP(=O)(O)O)O2)c(=O)[nH]c1=O	-	3′ processing	>100 µM
O=C(Oc1c(-c2ccc(Cl)c(Cl)c2)oc2ccccc2c1=O)c1cc(OCc2ccccc2)c(OCc2ccccc2)c(OCc2ccccc2)c1	-	3′ processing	>100 µM
C/C=C/c1cc(=O)c(C(=O)c2c(OC)cc(OC)cc2C(=O)OC)co1	-	strand transfer	>140 µM
O=C(Nc1ccc(Nc2ccncc2)cc1)c1ccc(Nc2ccnc3ccc([N+](=O)[O-])cc23)cc1[N+](=O)[O-]	-	3′ processing	40 µM
CC(C)=CCC[C@H](C)[C@@]1(O)CC[C@]2(C)C[C@H]3[C@H](C(=O)C[C@@]3(C)O)C(C=O)=C[C@H]21	-	strand transfer	125 µM
C/C(=N/NC1=NCCN1)c1cn(C2=NCCN2)nc1C	-	3′ processing	>250 µM
O=C(CCl)Nc1ccc(S(=O)(=O)c2ccc(NC(=O)CCl)cc2)cc1	-	3′ processing	46.5 µM
O=C1c2ccc(O)c(O)c2C(=O)N1Cc1ccc(F)c(F)c1	-	3′ processing	48 µM
O=C1NC(=O)c2c1ccc(O)c2O	-	3′ processing	>333 µM
CN(C)C1C(=O)C(C(=O)NCNCCCO)=C(O)C2(O)C(=O)C3=C(O)c4c(O)cccc4C(C)(O)C3CC12	RF	strand transfer	3.6 µM
CC(=O)/C(N=Nc1ccc(S(=O)(=O)c2ccc(N=N/C(C(C)=O)=C(/C)O)cc2)cc1)=C(\C)O	-	3′ processing	>100 µM
CC(=O)Oc1ccc(/C=C/C(=O)Oc2c(-c3ccc(Cl)cc3)oc3ccccc3c2=O)cc1OC(C)=O	-	3′ processing	>100 µM
O=C1c2ccc(O)c(O)c2C(=O)N1Cc1cccc(Cc2cc(F)c(F)c(F)c2)c1	-	strand transfer	0.58 µM
CO[C@H]1/C=C/O[C@@]2(C)Oc3c(C)c(O)c4c(O)c(c(/C=N/N5C(C)CN(Cc6ccc([N+](=O)[O-])cc6)CC5C)c(O)c4c3C2=O)NC(=O)/C(C)=C\C=C\[C@H](C)[C@H](O)[C@@H](C)[C@@H](O)[C@@H](C)[C@H](OC(C)=O)[C@@H]1C	RF	3′ processing	20.6 µM
O=C=Nc1cccc(S(=O)(=O)c2cccc(N=C=O)c2)c1	-	strand transfer	90 µM
COc1cc2c(c(OC)c1OC)C(=O)C1C2N1C(N)=O	-	3′ processing	>250 µM
Nc1cc(S(=O)(=O)c2ccc(O)c(N)c2)ccc1O	-	3′ processing	4.5 µM
COc1cc(C(=O)Oc2c(-c3ccc(Cl)c(Cl)c3)oc3ccccc3c2=O)ccc1OC(C)=O	-	3′ processing	>100 µM
CN(C)CCCNC(=O)c1cc(NC(=O)c2cc(NC(=O)c3cc(NC(=O)c4ncccc4C(=O)O)cn3C)cn2C)cn1C	-	disintegration	>100 µM
N=C1/C(=C/c2ccccc2O)C(=O)NN1C(=O)c1ccncc1	-	3′ processing	>250 µM
N=C(N)c1ccc(N=NNc2ccc(C(=N)N)cc2)cc1	-	3′ processing	>100 µM
O=C(C[C@@H](O)CCc1ccc(O)c(O)c1)O[C@H]1Cc2c(O)cc(O)cc2O[C@@H]1c1ccc(O)c(O)c1	RF	strand transfer	1 µM
Nc1nc2c(ncn2C2CC(O)C(COP(=O)(O)OC3CC(n4cnc5c(=O)[nH]c(N)nc54)OC3COP(=O)(O)O)O2)c(=O)[nH]1	-	strand transfer	11.5 µM
O=S(=O)(c1ccc(F)cc1)c1ccc(F)cc1	-	3′ processing	>100 µM
COc1cc(/C=C/C(=O)Oc2c(-c3ccc(Cl)cc3)oc3ccccc3c2=O)ccc1OC(C)=O	-	3′ processing	>100 µM
CN(C)CCCNC(=O)c1cc(NC(=O)c2cc(NC(=O)c3cc(NC(=O)c4cncc(C(=O)Nc5cc(C(=O)Nc6cc(C(=O)Nc7cc(C(=O)NCCCN(C)C)n(C)c7)n(C)c6)n(C)c5)c4)cn3C)cn2C)cn1C	-	disintegration	86 µM

A second listing of 3 rows from above:

structure,strain,read by,value
O=C1C2C3CCC(O3)C2C(=O)N1N1C(=O)C2C3CCC(O3)C2C1=O,-,3′ processing,>250 µM
O=C1c2c(ccc(O)c2O)CN1Cc1ccccc1,-,strand transfer,12 µM
O=C(Oc1c(-c2ccc(Cl)c(Cl)c2)oc2ccccc2c1=O)c1cc(OCc2ccccc2)c(OCc2ccccc2)c(OCc2ccccc2)c1,-,3′ processing,>100 µM

Blank or dashed fields: not listed here. Neighbouring rows are from separate reports.